Results of unrelated studies side by side (data: NIAID ChemDB).

Shared fields: tests in culture; agent: Mycobacterium tuberculosis

Conditions beyond the fields shown may differ between rows. MIC bound comes from a single tested concentration. ECn: concentration that inhibits the pathogen or its effect by n%. An empty or dashed field is not shown. A number after MIC or MFC names an inhibition level or a share of isolates. Inhibition is in % at the dose shown (toxicity tests: loss of growth or viability).

compound | endpoint | method | tested at | strain or isolate | result
CCCCCCCCCCCCNNC(=O)C1C(c2cc(OC)c(OC)c(OC)c2)c2cc3c(cc2C(O)C1CO)OCO3 | MIC bound | BACTEC | - | H37Rv | >12.5 µg/mL
COc1ccc2[nH]c3c(C)c(C)c(OC)c(OC)c3c2c1 | MIC | GFP | - | H37Ra | 25 µg/mL
CCCCCCCC/C=C\CCCCCCCCNc1ccc(C(=O)C2CC2c2ccc(Cl)cc2)cc1 | MIC | broth dilution / agar | - | H37Rv | >12.5 µg/mL
CN(C)c1ccc(N=C2C=CC(=O)c3ccccc32)cc1 | MIC bound | BACTEC | - | H37Rv | ≤12.5 µg/mL
CO[C@H]1/C=C/O[C@@]2(C)Oc3c(C)c(O)c4c(O)c(c(/C=N/N5CCN(C)CC5)c(O)c4c3C2=O)NC(=O)/C(C)=C\C=C\[C@H](C)[C@H](O)[C@@H](C)[C@@H](O)[C@@H](C)[C@H](OC(C)=O)[C@@H]1C | MIC | broth dilution | - | H37Rv | ≤0.007 µg/mL
COc1ccc(S(=O)(=O)n2nnnc2-c2ccc(OCC(O)(Cn3cncn3)c3ccc(Cl)cc3Cl)c(OC)c2)cc1 | MIC100 | resazurin | - | H37Rv | 6.25 µg/mL
CO[C@H]1/C=C/O[C@@]2(C)Oc3c(C)c(O)c4c(O)c(c(/C=N/N=C(\C)N5CCCCC5)c(O)c4c3C2=O)NC(=O)/C(C)=C\C=C\[C@H](C)[C@H](O)[C@@H](C)[C@@H](O)[C@@H](C)[C@H](OC(C)=O)[C@@H]1C | MIC | - | - | H37Rv | 0.016 µg/mL
Cc1ncc([N+](=O)[O-])n1CCSC#N | inhibition | resazurin | 6.25 µg/mL | H37Rv | 4%
CCCCCCCCO[C@H]1O[C@H](CO[C@@H]2[C@@H](OCCCCCCCC)O[C@H](CO)[C@H]2OC)[C@@H](O[C@@H]2O[C@H](O)[C@@H](OC)[C@@H]2O)[C@@H]1O | EC50 | - | - | H37Rv | >6.25 µg/mL
O=C(c1ccc(NCc2ccco2)cc1)C1CC1c1ccc(Cl)cc1 | MIC | broth dilution / agar | - | H37Rv | >12.5 µg/mL
CC(C)N=c1cc2n(-c3ccc(Cl)cc3)c3ccccc3nc-2cc1Nc1ccc(Cl)cc1 | MIC | - | - | H37Rv | 0.06 µg/mL
CCCCCCCCO[C@H]1O[C@H](CO[C@H]2O[C@H](CO)[C@@H](OC)[C@@H]2O)[C@@H](O)[C@@H]1O | EC50 | - | - | H37Rv | >6.25 µg/mL
CO[C@H]1/C=C/O[C@@]2(C)Oc3c(C)c(O)c4c(O)c(c(/C=N/N5CCN(C6CCCC6)CC5)c(O)c4c3C2=O)NC(=O)/C(C)=C\C=C\[C@H](C)[C@H](O)[C@@H](C)[C@@H](O)[C@@H](C)[C@H](OC(C)=O)[C@@H]1C | MIC | - | - | H37Rv (streptomycin-resistant) | 2.5 µg/mL
Clc1ccc(/C=N\C2=NN3C(=CSC3c3ccccc3)S2)cc1 | MIC | resazurin | - | H37Rv | 6.25 µg/mL
COc1c(N2CCNC(C)C2)c(F)cc2c(=O)c(C(=O)O)cn(C3CC3)c12 | MIC50 | - | - | 5 isolates drug-resistant | 0.031 µg/mL
CC1(C)CC(Nc2ncnc3c2ncn3[C@@H]2O[C@H](CO)[C@@H](O)[C@H]2O)CC(C)(C)N1O | MIC bound | BACTEC | - | H37Rv | >12.5 µg/mL
O=c1[nH]c2cc(C(F)(F)F)ccc2nc1CBr | EC50 | - | - | - | >12.5 µg/mL
COc1c(C)c(C)c2[nH]c3ccccc3c2c1O | MIC | GFP | - | H37Ra | >50 µg/mL
CO[C@H]1/C=C/O[C@@]2(C)Oc3c(C)c(O)c4c(O)c(c(/C=N/N=C(\C)N(C)C)c(O)c4c3C2=O)NC(=O)/C(C)=C\C=C\[C@H](C)[C@H](O)[C@@H](C)[C@@H](O)[C@@H](C)[C@H](OC(C)=O)[C@@H]1C | MIC | - | - | H37Rv | 0.032 µg/mL
CCC[C@@H]1C[C@@H](C(=O)N[C@@H]([C@H]2O[C@H](SC)[C@H](O)[C@@H](O)[C@H]2O)[C@H](C)Cl)N(C)C1 | MIC | - | - | H37Ra | <64 µg/mL
Cc1cc2c(cc1C)[n+](=O)cc(C(=O)C/C(=N\NC(=S)NN)C(=O)Nc1cccc(C(F)(F)F)c1)n2[O-] | MIC bound | BACTEC | - | H37Rv | >12.5 µg/mL
COc1cc(-c2nnnn2S(=O)(=O)c2ccc(OC(F)(F)F)cc2)ccc1OCC(O)(Cn1cncn1)c1ccc(F)cc1F | MIC100 | resazurin | - | H37Rv | 3.12 µg/mL
C[C@H](c1ccccc1)N1C/C(=C\c2ccc(Cl)cc2Cl)[C@@]2(ON=C(c3ccccc3)O2)[C@@]2(C1)ON=C(c1ccccc1)[C@@H]2c1ccc(Cl)cc1Cl | MIC | - | - | H37Rv | 1.03 µM
Cc1c2ccn(O)cc2c(C)c2c1nc1ccccc12 | inhibition | BACTEC | 12.5 µg/mL | H37Rv | 86%
C[C@H]1COC2(CCN(S(=O)(=O)c3cc(-[n+]4ccc(O)cc4)cc(C(F)(F)F)c3)CC2)O1 | MIC | resazurin | - | H37Rv | >50 µM
O=C(c1ccc(N2CCCC2)cc1)C1CC1c1ccc(Cl)cc1 | MIC | broth dilution / agar | - | H37Rv | >12.5 µg/mL
C=CCN(CC=C)/C(C)=N/N=C/c1c2c(O)c3c(O)c(C)c4c(c3c1O)C(=O)[C@@](C)(O/C=C/[C@H](OC)[C@@H](C)[C@@H](OC(C)=O)[C@H](C)[C@H](O)[C@H](C)[C@@H](O)[C@@H](C)/C=C/C=C(/C)C(=O)N2)O4 | MIC | - | - | H37Rv | 0.016 µg/mL
CN1CCN(c2ccc(C(=O)C3CC3c3ccc(Cl)cc3)cc2)CC1 | MIC | broth dilution / agar | - | H37Rv | 3.25 µg/mL
Oc1ccc(C2SC=C3SC(/N=C\c4ccccc4O)=NN32)cc1 | MIC | resazurin | - | H37Rv | 3.125 µg/mL
Cn1c(=O)c2nc3ccccc3nc2n(C)c1=O | inhibition | BACTEC | 12.5 µg/mL | H37Rv | 0%
CC(C)N=c1cc2n(-c3ccc(Cl)cc3)c3ccccc3nc-2cc1Nc1cccnc1 | MIC90 | resazurin | - | H37Rv | 0.07 µg/mL
CCCCn1cnc2ccc3nc(-c4ccccc4)c(-c4ccccc4)nc3c2c1=O | inhibition | BACTEC | 12.5 µg/mL | H37Rv | 19%
O=C1C(Cl)C(c2ccccc2Cl)N1C1=NN2C(=CSC2c2ccccc2)S1 | MIC | resazurin | - | H37Rv | 3.125 µg/mL
NC(=O)N/N=C(\Cc1nc2ccccc2nc1C/C(=N\NC(N)=O)c1cccc2ccccc12)c1cccc2ccccc12 | inhibition | resazurin | 6.25 µg/mL | H37Rv | 12%
CCCCCCCCO[C@H]1O[C@H](CO)[C@@H](O[C@H]2O[C@H](CO)[C@@H](OC)[C@@H]2O)[C@@H]1O | EC50 | - | - | H37Rv | >6.25 µg/mL
CN(C)c1ccc(C2SC=C3SC(N4C(=O)C(Cl)C4c4ccccc4)=NN32)cc1 | MIC | resazurin | - | H37Rv | 6.25 µg/mL
Cc1cccc(Nc2sc(C(=O)c3cc4cc(Cl)ccc4o3)c(N)c2C#N)c1 | inhibition | BACTEC | 12.5 µg/mL | H37Rv | -63%
C[C@H](c1ccccc1)N1C/C(=C/c2ccccc2Cl)[C@]2(ON=C(c3ccc(Cl)cc3)O2)C2(C1)ON=C(c1ccc(Cl)cc1)[C@H]2c1ccccc1Cl | MIC | - | - | MDR-TB | 2.06 µM
CN(C)CNC(=S)S | MIC | - | - | RMP-R | 6.3 µg/mL
C[C@@H]1[C@H](O)[C@@H](C)/C=C/C=C/CC/C=C/C=C/C=C/C=C/C(O[C@H]2O[C@H](C)[C@@H](O)[C@H](N)[C@@H]2O)CC2O[C@](O)(CC(O)C(O)CCC(O)CC(O)CC(O)CC(=O)O[C@H]1C)CC(O)C2C(=O)O | MIC | broth dilution | - | H37Rv | 0.002 µM
Cc1cc(=O)c2c(=O)n(-c3ccccc3)[nH]c2[nH]1 | MIC bound | BACTEC | - | H37Rv | >12.5 µg/mL
CCCN(CCC)/C(C)=N/N=C/c1c2c(O)c3c(O)c(C)c4c(c3c1O)C(=O)[C@@](C)(O/C=C/[C@H](OC)[C@@H](C)[C@@H](OC(C)=O)[C@H](C)[C@H](O)[C@H](C)[C@@H](O)[C@@H](C)/C=C/C=C(/C)C(=O)N2)O4 | MIC | - | - | H37Rv | 0.032 µg/mL
Cc1c([N+](=O)[O-])oc2ccc3ccccc3c12 | MIC bound | resazurin | - | H37Rv | >6.25 µg/mL
Cc1ccc(NC(=S)C(=S)Nc2ccc(C)cc2)cc1 | MIC | - | - | - | 15 µM
O=c1[nH]c2ccc(C(F)(F)F)cc2nc1C(F)(F)F | EC50 | - | - | - | >12.5 µg/mL
Cc1ccc([C@H]2C(c3ccccc3)=NO[C@@]23CN([C@H](C)c2ccccc2)C/C(=C\c2cccc(C)c2)[C@@]32ON=C(c3ccccc3)O2)cc1 | MIC | - | - | MDR-TB | 2.42 µM
Cc1ccc(C2SC=C3SC(/N=C\c4ccccc4)=NN32)cc1 | MIC | resazurin | - | H37Rv | 12.5 µg/mL
COc1ccc2[nH]c3c(Cc4ccc5[nH]c6c(C)c(C)c(OC)c(O)c6c5c4)c(C)c(OC)c(O)c3c2c1 | MIC | GFP | - | H37Ra | 12.5 µg/mL
CN(C)c1ccc2c(Cl)cc(=O)[nH]c2c1.[K+].[OH-] | inhibition | BACTEC | 12.5 µg/mL | H37Rv | 21%
CCCCN(CCCC)c1ccc(C(=O)C2CC2c2ccc(Cl)cc2)cc1 | MIC | broth dilution / agar | - | H37Rv | >12.5 µg/mL
CN[C@@H]1[C@H](O[C@H]2[C@H](O[C@H]3[C@H](O)[C@@H](O)[C@H](N=C(N)N)[C@@H](O)[C@@H]3N=C(N)N)O[C@@H](C)[C@]2(O)C=O)O[C@@H](CO)[C@H](O)[C@H]1O | MIC | resazurin | - | H37Rv | 6.25 µg/mL
COc1ccc2[nH]c3c(C)c(C)c(OC)c(O)c3c2c1 | MIC | GFP | - | H37Ra | >50 µg/mL
O=C1CSC(c2ccc(Cl)c(Cl)c2)N1c1nncs1 | MIC bound | BACTEC | - | H37Rv | >12.5 µg/mL
COc1cc(-c2nnnn2S(=O)(=O)c2ccc(F)cc2)ccc1OCC(O)(Cn1cncn1)c1ccc(Cl)cc1Cl | MIC100 | resazurin | - | H37Rv | 6.25 µg/mL
CC(C)CNP(=S)(NCC(C)C)c1ccccc1 | inhibition | BACTEC | 6.25 µg/mL | H37Rv | 0%
Cc1c(CN2CCSCC2)cc(-c2ccccc2)n1-c1ccccc1 | MIC | - | - | 103471 | 1 µg/mL
CCCCCCCCO[C@H]1O[C@H](CO[C@H]2O[C@H](CO)[C@@H](N=[N+]=[N-])[C@@H]2O)[C@@H](O)[C@@H]1O | inhibition | - | 6.25 µg/mL | H37Rv | 13%
Cc1ccc(-n2c3cc(=NC(C)C)c(Nc4ccc(Cl)cc4)cc-3nc3ccccc32)cc1 | MIC90 | resazurin | - | H37Rv | >42.45 µg/mL
CC1=NN(C(=O)c2ccncc2)C(=O)C1N=Nc1cccc(Cl)c1Cl | MIC bound | resazurin | - | H37Rv | >6.25 µg/mL
C[C@H](c1ccccc1)N1C/C(=C/c2ccc(Cl)cc2Cl)[C@]2(ON=C(c3ccccc3)O2)C2(C1)ON=C(c1ccccc1)[C@H]2c1ccc(Cl)cc1Cl | MIC | - | - | H37Rv | 2.06 µM
O=C1C(Cl)C(c2ccccc2)N1C1=NN2C(=CSC2c2ccc(O)cc2)S1 | MIC | resazurin | - | H37Rv | 6.25 µg/mL
CC(C)N=c1cc2n(-c3ccc(Cl)cc3)ccnc-2cc1Nc1ccc(Cl)cc1 | MIC90 | resazurin | - | H37Rv | 18.89 µg/mL
Nc1ccc2nc3ccc(=[NH2+])cc-3sc2c1 | inhibition | BACTEC | 12.5 µg/mL | H37Rv | 81%
c1ccc(-c2c3c(nc4ccccc24)CCC3)cc1 | MIC99 | resazurin | - | H37Rv | 3.25 µg/mL
CC(=O)N/N=C1\CC(C)(C)C2CCC1C2 | MIC bound | BACTEC | - | H37Rv | >12.5 µg/mL
CO[C@H]1/C=C/O[C@@]2(C)Oc3c(C)c(O)c4c(O)c(c(/C=N/N5CCN(C6CCCC6)CC5)c(O)c4c3C2=O)NC(=O)/C(C)=C\C=C\[C@H](C)[C@H](O)[C@@H](C)[C@@H](O)[C@@H](C)[C@H](O)[C@@H]1C | MIC | - | - | Isolate 900233 drug-susceptible | 0.25 µg/mL
CN(C)c1ccc(C2SC=C3SC(/N=C\c4ccccc4)=NN32)cc1 | MIC | resazurin | - | H37Rv | 6.25 µg/mL
COC(=O)Nc1ccc(NC(=O)c2cscn2)c(NC(=O)OC)n1 | MIC bound | BACTEC | - | H37Rv | >12.5 µg/mL
C[C@H](c1ccccc1)N1C[C@@]2(ON=C(c3ccccc3)[C@H]2c2ccc(Cl)cc2Cl)C2(ON=C(c3ccccc3)O2)[C@]2(C1)ON=C(c1ccccc1)[C@H]2c1ccc(Cl)cc1Cl | MIC | - | - | H37Rv | 1.78 µM